According to patent US20110159480A1, “CELL-BASED SCREENING ASSAY TO IDENTIFY MOLECULES THAT STIMULATE IFN-ALPHA/BETA TARGET GENES” (INSTITUT PASTEUR, priority 2009, published 2011):

System: luciferase reporter gene under control of an ISRE element
Test: ISRE-luciferase reporter in HEK-293T cells treated with recombinant IFN-β, with or without co-expressed measles virus V protein
Format: cell-based, human
Details: 1,000 IU/ml recombinant IFN-β added 24 h after transfection, 24 h incubation

B1: IFN-β: recombinant interferon β used as positive control at 1,000 IU/ml (protein, UniProt P01574 22-187, looked up)
Interferon beta: MSYNLLGFLQRSSNFQCQKLLWQLNGRLEYCLKDRMNFDIPEEIKQLQQFQKEDAALTIYEMLQNIFAIFRQDSSSTGWNETIVENLLANVYHQINHLKTVLEEKLEKEDFTRGKLMSSLHLKRYYGRILHYLKAKEYSHCAWTIVRVEILRNFYFINRLTGYLRN
For B1, the “relative luciferase activity of IFN-treated cells” value was “stimulated”.
